Measured values from several laboratories, pooled; numbers as filed in NIAID ChemDB.

Shared fields: tests in culture; organism: Hepatitis C virus; read-out: EC50

Conditions beyond the fields shown may differ between rows. Two numbers with a dash give a range or band. An empty or dashed field is not shown. ECn is the concentration giving n% inhibition of infection, replication or growth.

SMILES,mutations,cell line,method,strain,conditions,value
C=C[C@@H]1C[C@]1(NC(=O)[C@@H]1C[C@@H](Oc2cc(-c3ccccc3)nc3cc(OC)ccc23)CN1C(=O)[C@@H](NC(=O)OC(C)(C)C)C(C)(C)C)C(=O)NS(=O)(=O)c1cccc([N+](=O)[O-])c1,,Huh7,replicon,1b,,<50 µM
Cc1ccc(OS(=O)(=O)c2ccc(C(F)(F)F)cc2)c(/C=N/NC(=O)Cc2cccc(Cl)c2)c1,,Huh7,replicon,,,<5 µM
CCOc1nc(NCc2ccc(F)cc2)nc2ccc(-c3ccc(C(=O)NC(C)(C)CO)cc3)nc12,,,replicon,,,<0.1 µM
O=C(Nc1ccc(C2SC3=Nc4ccccc4CN3C2=O)cc1)[C@@H]1CCCN1C(=O)OCc1ccccc1,,Huh7,replicon,,,0.1–1 µM
CCCCCCCCOc1ccc(N(C(=O)OCCOCCOCCOCCOC)c2nc(-c3cccnc3)c(F)s2)cc1C(F)(F)F,,,,,,<1 µM
O=C(O)c1c(-c2ccc[nH]c2=O)c2c3occ(Cl)c3c(F)cc2n1Cc1cc(F)ccc1F,,,replicon,,,<0.5 µM
COCCNS(=O)(=O)c1cc(-c2ccc3nc(NCc4ccc(S(N)(=O)=O)cc4)nc(NCC(F)(F)F)c3n2)ccc1Cl,,,replicon,,,<0.1 µM
C/C(=C\c1ccc(NC(=O)C2(NC(=O)c3ccc4c(c3)nc(-c3ccoc3)n4C3CCCCC3)CCCC2)cc1)C(=O)O,,Huh7,,,,≤5 µM
O=C(Nc1ccc(C2SC(=Nc3ccc(C(F)(F)F)cc3)N(Cc3ccco3)C2=O)cc1)[C@H]1CCCN1C(=O)OCc1ccccc1,,Huh7,replicon,,,0.1–1 µM
O=C(c1cc2c(C(F)(F)F)cc(-c3ccccc3)nc2s1)N1CCOCC1,,Huh7,MTT,,,4.5 µM
NCc1cccc(Cn2c(C(=O)O)c(-c3ccc[nH]c3=O)c3c4occc4c(F)cc32)c1,,,replicon,,,<0.5 µM
CNC(=O)c1c(-c2ccc(F)cc2)oc2cc(N(Cc3ccc(B(O)O)c(F)c3)S(C)(=O)=O)c(C3CC3)cc12,,Huh7.5,luciferase,C316N genotype 1b,,0.0019 µM
NS(=O)(=O)c1ccc(CNc2nc(NCC(F)(F)F)c3nc(-c4cccc(S(N)(=O)=O)c4)ccc3n2)cc1,,,replicon,,,<0.1 µM
COc1nc(N)nc2c1ncn2[C@@H]1O[C@H](COP(=O)(N[C@@H](C)C(=O)OC(C)C)Oc2ccccc2)[C@@H](O)[C@@]1(C)F,,,replicon,2a,115 d,0.055 µM
CCOc1nc(N)nc2ccc(-c3ccc(NC(=O)CC)cc3)nc12,,Huh7,replicon,,,<0.3 µM
O=C(Cc1cccc(Br)c1)N/N=C/c1ccccc1OS(=O)(=O)c1ccc(C(F)(F)F)cc1,,Huh7,replicon,,,<5 µM
C=C[C@@H]1C[C@]1(NC(=O)[C@@H]1C[C@@H](Oc2cc(-c3ccccc3)nc3cc(OC)ccc23)CN1C(=O)[C@@H](NC(=O)OCO)C(C)(C)C)C(=O)NS(=O)(=O)C1CC1,,Huh7,replicon,1b,,<0.5 µM
O=C(N/N=C/c1ccccc1OS(=O)(=O)c1ccc(C(F)(F)F)cc1)c1ccccc1Cl,,Huh7,replicon,,,<5 µM
CCCCCCCCOc1ccc(N(C(=O)CO)c2nc(-c3cccnc3)cs2)cc1C(F)(F)F,,,,,,<1 µM
Nc1c(C(=O)N2CCn3c(nnc3C(F)(F)F)C2)sc2nc(-c3ccccc3)cc(C(F)(F)F)c12,,Huh7,luciferase / replicon,,,3.3 µM
CNC(=O)c1c(-c2ccc(F)cc2)oc2ccc(OCc3cscn3)cc12,,Huh7,replicon,,,>30 µM
O=C(Cc1ccccc1)N/N=C/c1ccccc1OS(=O)(=O)c1cccc(Br)c1,,Huh7,replicon,,,5–50 µM
C[C@H](C(=O)Nc1ccc(C2SC(=Nc3ccc(N4CCOCC4)cc3)N(Cc3ccccn3)C2=O)cc1)N(C)C(=O)OCc1ccccc1,,Huh7,replicon,,,0.1–1 µM
C=C[C@@H]1C[C@]1(NC(=O)[C@@H]1C[C@@H](Oc2cc(-c3ccccc3)nc3cc(OC)ccc23)CN1C(=O)[C@@H](NC(=O)OC(C)(C)C)C(C)(C)C)C(=O)NS(=O)(=O)c1ccccc1C#N,,Huh7,replicon,1b,,<5 µM
CCOc1nc(N)nc2ccc(-c3ccc(NC(=O)[C@@H](N)CO)cc3)nc12,,Huh7,replicon,,,<0.3 µM
CNC(=O)c1c(-c2ccc(F)cc2)oc2cc(-c3c(C)noc3C)c(OCCN3CCC(C#N)CC3)cc12,,Huh7,replicon,,,<1 µM
O=C(CCc1ccccc1)N/N=C/c1ccccc1OS(=O)(=O)c1ccc(C(F)(F)F)cc1,,Huh7,replicon,,,<5 µM
CNC(=O)c1c(-c2ccccc2)oc2ccc(OC(C)C)cc12,,Huh7,replicon,,,<30 µM
Fc1ccc(-c2ccc3nc(NCc4cccnc4)nc(NCC(F)(F)F)c3n2)cc1,,,replicon,,,<0.1 µM
O=C(NC1CC1)c1ccc(F)c(Cn2c(C(=O)O)c(-c3ccc[nH]c3=O)c3c4occc4c(F)cc32)c1,,,replicon,,,>1.5 µM
CNC(=O)c1c(-c2ccc(F)cc2)oc2cc(N(C)S(C)(=O)=O)c(O)cc12,,Huh7,replicon,,,<10 µM
Nc1nc(O[C@@H]2CCOC2)c2nc(-c3ccc(NC(=O)[C@H]4CCNC4)cc3)ccc2n1,,Huh7,replicon,,,>1 µM
O=C(O)/C=C/c1ccc(NC(=O)C2(NC(=O)c3ccc4c(c3)nc(-c3ccoc3)n4C3CCCCC3)CCCC2)cc1,,Huh7,,,,≤5 µM
Cc1cccc(Cn2c(C(=O)NS(=O)(=O)C3CC3)c(-c3ccc[nH]c3=O)c3c4occc4c(F)cc32)c1F,,,replicon,,,<0.5 µM
CCOc1nc(N)nc2ccc(-c3ccc(C(=O)NC4CC4)c(Cl)c3)nc12,,Huh7,replicon,,,0.3–1 µM
CCCCCOc1ccc(N(C(=O)C(C)C)c2nc(-c3cccnc3)cs2)cc1F,,,,,,<1 µM
CNC(=O)c1c(-c2ccc(F)cc2)oc2cc(C(=O)O)c(OC(C)C)cc12,,Huh7,replicon,,,<10 µM
C=C[C@@H]1C[C@]1(NC(=O)[C@@H]1C[C@@H](Oc2cc(-c3ccccc3)nc3cc(OC)ccc23)CN1C(=O)[C@@H](NC(=O)OC(C)(C)C)C(C)(C)C)C(=O)NS(=O)C(C)(C)C,,Huh7,replicon,1b,,<5 µM
O=C(Cc1cccc(Cl)c1)N/N=C/c1ccc(F)cc1OS(=O)(=O)c1ccc(C(F)(F)F)cc1,,Huh7,replicon,,,5–50 µM
CCOc1nc(NCc2ccc(F)cc2)nc2ccc(-c3cccc(NS(=O)(=O)C4CC4)c3)nc12,,,replicon,,,<0.1 µM
CCS(=O)(=O)NC(=O)c1c(-c2ccc[nH]c2=O)c2c3ccccc3ccc2n1Cc1ccnc(N)c1,,,replicon,,,1–10 µM
COc1cccc(CNc2cccc(CC(=O)N/N=C/c3ccccc3OS(=O)(=O)c3ccc(C(F)(F)F)cc3)c2)c1,,Huh7,replicon,,,>50 µM
CNC(=O)c1c(-c2ccc(F)cc2)oc2cc(Br)c(OC(C)C)cc12,,Huh7,replicon,,,<1 µM
C=C[C@@H]1C[C@]1(NC(=O)[C@@H]1C[C@@H](Oc2cc(-c3ccccc3)nc3cc(OC)ccc23)CN1C(=O)[C@@H](NC(=O)OC(C)(C)C)C(C)(C)C)C(=O)NS(=O)(=O)c1cccc(Br)c1,,Huh7,replicon,1b,,<0.05 µM
CCCCCN(C)c1ccc(N(C(N)=O)c2nc(-c3ccc(F)cc3)cs2)cc1C(F)(F)F,,,,,,<1 µM
O=C(O)/C=C/c1ccc(NC(=O)C2(NC(=O)c3ccc4c(c3)nc(-c3cccs3)n4C3C[C@H]4CC[C@@H]3C4)CCCC2)cc1,,Huh7,,,,≤5 µM
Cc1ncccc1C(=O)N/N=C/c1ccccc1OS(=O)(=O)c1ccc(C(F)(F)F)cc1,,Huh7,replicon,,,5–50 µM
O=C(Nc1ccc(C2SC(=Nc3cccc(F)c3)N(Cc3ccccc3)C2=O)cc1)[C@H]1CCCN1C(=O)OCc1ccccc1,,Huh7,replicon,,,0.1–1 µM
Nc1noc2ccc(Cn3c(C(=O)NS(=O)(=O)C4CC4)c(-c4ccc[nH]c4=O)c4c5occc5c(F)cc43)cc12,,,replicon,,,<0.5 µM
CCC(C)c1ccc(N=C2SC(c3ccc(NC(=O)[C@@H](C)NC(=O)OCc4ccccc4)cc3)C(=O)N2Cc2ccco2)cc1,,Huh7,replicon,,,1–5 µM
Cc1ccccc1Cn1c(C(=O)NS(C)(=O)=O)c(-c2ccc[nH]c2=O)c2c3occc3ccc21,,,replicon,,,<0.5 µM
Nc1c(C(=O)N2CCOCC2)sc2nc(-c3ccccc3)cc(C(F)(F)F)c12,,Huh7,luciferase / replicon,,,3.3 µM
Cc1c(C(=O)N[C@H](C)C(=O)Nc2ccc(/C=C/C(=O)O)cc2)ccc2c1nc(-c1ccoc1)n2C1CCCCC1,,Huh7,,,,5–50 µM
COc1c(-c2ccc3cc(NS(C)(=O)=O)ccc3c2)cc(-n2ccc(=O)[nH]c2=O)cc1C(C)(C)C,S282T,Huh7,luciferase,genotype 1b,,0.0011 µM
C=C[C@@H]1C[C@]1(NC(=O)[C@@H]1C[C@@H](Oc2cc(-c3ccccc3)nc3cc(OC)ccc23)CN1C(=O)[C@@H](NC(=O)CC1C2CC1C2)C(C)(C)C)C(=O)NS(=O)(=O)C1CC1,,Huh7,replicon,1b,,<0.05 µM
CNC(=O)c1c(-c2ccc(F)cc2)oc2cc(N3CCOCC3)c(OC)cc12,,Huh7,replicon,,,<1 µM
Cc1ccc(C)c(S(=O)(=O)Oc2ccccc2/C=N/NC(=O)Cc2ccccc2)c1,,Huh7,replicon,,,>50 µM

For reference, 3 entries again:

CCC(C)c1ccc(N=C2SC(c3ccc(NC(=O)[C@@H](C)NC(=O)OCc4ccccc4)cc3)C(=O)N2Cc2ccco2)cc1 ; cell line: Huh7 ; method: replicon ; value: 1–5 µM
C=C[C@@H]1C[C@]1(NC(=O)[C@@H]1C[C@@H](Oc2cc(-c3ccccc3)nc3cc(OC)ccc23)CN1C(=O)[C@@H](NC(=O)OC(C)(C)C)C(C)(C)C)C(=O)NS(=O)(=O)c1cccc([N+](=O)[O-])c1 ; cell line: Huh7 ; method: replicon ; strain: 1b ; value: <50 µM
O=C(Cc1cccc(Br)c1)N/N=C/c1ccccc1OS(=O)(=O)c1ccc(C(F)(F)F)cc1 ; cell line: Huh7 ; method: replicon ; value: <5 µM